PubChem BioAssay AID624099 – ICCB-Longwood, 2012

Test: 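Knock-downs relieving repression by E2 of an HPV18 LCR luciferase reporter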 (primary screen)
Cells: human C33A cervical carcinoma cells (HPV-negative) stably expressing BPV1 E2 and an HPV18 LCR luciferase reporter
Knock-down reagent: siRNA pool against human genes, 40 nM
Timing: 72 h
Detection: 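Per-well luciferase luminescence, z-scored on each plate against the plate mean and SD with control wells left out, then averaged across three replicate plates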
Direction: mean z-score and z-score: higher = stronger reporter signal, weaker E2 silencing
Rule for the call: 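Mean z ≥ 2 together with z ≥ 2 in two or more of the three replicates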
The whole screen tested about 21,000 reagents; below is a random part of them. 497 of all reagents (2.4%) count as active. 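Higher z means weaker E2 silencing; only reporter increases were scored, and knock-downs that hurt cell survival may mask genuine repressor factors.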 The numbers tell different reagents against one gene apart.

| mean z-score | z-score, replicate A | z-score, replicate B | z-score, replicate C | Call | Gene | pool no. |
| --- | --- | --- | --- | --- | --- | --- |
| -0.5 | -0.18 | -0.51 | -0.81 | inactive | LOC153910 | 1 |
| 0.25 | 0.2 | 0.4 | 0.14 | inactive | ROBO1 (roundabout guidance receptor 1) | 1 |
| -0.06 | -0.2 | 0.16 | -0.15 | inactive | GPC3 (glypican 3) | 1 |
| -0.4 | -0.33 | -0.27 | -0.61 | inactive | MICU3 (mitochondrial calcium uptake 3) | 1 |
| -1.47 | -1.94 | -1.1 | -1.39 | inactive | OR4K2 (olfactory receptor family 4 subfamily K member 2) | 1 |
| -1.64 | -1.51 | -1.62 | -1.8 | inactive | OR2T5 (olfactory receptor family 2 subfamily T member 5) | 1 |
| -0.64 | -1.03 | -0.66 | -0.24 | inactive | PDHA1 (pyruvate dehydrogenase E1 subunit alpha 1) | 1 |
| -0.67 | -0.28 | -1.08 | -0.65 | inactive | TFDP3 (transcription factor Dp family member 3) | 1 |
| 0.41 | 0.86 | 0.21 | 0.17 | inactive | HIPK4 (homeodomain interacting protein kinase 4) | 1 |
| 0.11 | -0.07 | 0.1 | 0.3 | inactive | FHL3 (four and a half LIM domains 3) | 1 |
| -0.62 | -0.56 | -0.55 | -0.74 | inactive | ZRSR2 | 1 |
| -1.62 | -1.89 | -1.64 | -1.32 | inactive | DYNC2I2 (dynein 2 intermediate chain 2) | 1 |
| -0.52 | -0.51 | -0.62 | -0.44 | inactive | CHM (CHM Rab escort protein) | 1 |
| 1.1 | 1.23 | 0.88 | 1.21 | inactive | CHM (CHM Rab escort protein) | 2 |
| -0.19 | 0.05 | -0.2 | -0.43 | inactive | A2M (alpha-2-macroglobulin) | 1 |
| 0.58 | 0.48 | 0.8 | 0.48 | inactive | TMEM52 (transmembrane protein 52) | 1 |
| 0.08 | -0.19 | -0.04 | 0.46 | inactive | TSPY16P (testis specific protein Y-linked 16, pseudogene) | 1 |
| 0.29 | 0.47 | 0.35 | 0.05 | inactive | LCLAT1 (lysocardiolipin acyltransferase 1) | 1 |
| -0.97 | -0.91 | -0.97 | -1.03 | inactive | ACAD8 (acyl-CoA dehydrogenase family member 8) | 1 |
| -0.59 | -0.55 | -0.37 | -0.86 | inactive | CELSR1 (cadherin EGF LAG seven-pass G-type receptor 1) | 1 |
| -0.32 | -0.5 | -0.61 | 0.14 | inactive | LOC402633 (retired record) | 1 |
| -1.16 | -1.08 | -1.23 | -1.15 | inactive | ZNF737 (zinc finger protein 737) | 1 |
| 0.16 | 0.05 | 0.24 | 0.2 | inactive | FGF7 (fibroblast growth factor 7) | 1 |
| -0.53 | -0.47 | -0.49 | -0.64 | inactive | CD2 (CD2 molecule) | 1 |
| 0.92 | 0.76 | 1.51 | 0.5 | inactive | SAMD11 (sterile alpha motif domain containing 11) | 1 |
| 0.11 | 0.15 | -0.11 | 0.29 | inactive | LOC400943 (retired record) | 1 |
| 0.52 | 0.93 | 0.21 | 0.41 | inactive | ZNF93 (zinc finger protein 93) | 1 |
| -2.07 | -2.31 | -1.98 | -1.93 | inactive | SF3B5 (splicing factor 3b subunit 5) | 1 |
| -0.34 | -0.42 | -0.46 | -0.14 | inactive | ISG20L2 (interferon stimulated exonuclease gene 20 like 2) | 1 |
| -0.14 | -0.31 | 0.07 | -0.17 | inactive | CFAP54 (cilia and flagella associated protein 54) | 1 |
| -1.26 | -0.93 | -1.73 | -1.13 | inactive | CFAP54 (cilia and flagella associated protein 54) | 2 |
| -0.16 | -0.29 | -0.14 | -0.04 | inactive | SNX18 (sorting nexin 18) | 1 |
| 0.41 | 0.49 | 0.33 | 0.41 | inactive | RETNLB (resistin like beta) | 1 |
| 1.57 | 1.65 | 1.32 | 1.74 | inactive | LOC389353 (retired record) | 1 |
| -0.73 | -1.32 | -0.66 | -0.22 | inactive | TMEM143 (transmembrane protein 143) | 1 |
| 0.14 | 0.21 | 0.18 | 0.02 | inactive | FGF16 (fibroblast growth factor 16) | 1 |
| 0.4 | 0.62 | 0.35 | 0.21 | inactive | NUAK2 (NUAK family kinase 2) | 1 |
| 0.42 | 0.41 | 0.35 | 0.5 | inactive | SNX27 (sorting nexin 27) | 1 |
| -0.83 | -0.93 | -0.94 | -0.62 | inactive | WEE1 (WEE1 G2 checkpoint kinase) | 1 |
| -1.01 | -0.63 | -0.84 | -1.56 | inactive | NTSR1 (neurotensin receptor 1) | 1 |
| -0.37 | -0.17 | -0.44 | -0.5 | inactive | PDZD2 (PDZ domain containing 2) | 1 |
| 1.31 | 1.51 | 1.16 | 1.26 | inactive | LOC253289 (retired record) | 1 |
| 1.61 | 1.91 | 1.53 | 1.39 | inactive | NMRK2 (nicotinamide riboside kinase 2) | 1 |
| 0.26 | 0.12 | 0.05 | 0.61 | inactive | RGS7 (regulator of G protein signaling 7) | 1 |
| 0.49 | 0.35 | 0.74 | 0.38 | inactive | TCP11L2 (t-complex 11 like 2) | 1 |
| -1.06 | -0.83 | -1.02 | -1.32 | inactive | RNF25 (ring finger protein 25) | 1 |
| -1.09 | -1.02 | -1.16 | -1.08 | inactive | FAM107B (family with sequence similarity 107 member B) | 1 |
| 0.68 | 0.77 | 0.44 | 0.83 | inactive | KLF11 (KLF transcription factor 11) | 1 |
| -0.34 | -0.79 | -0.17 | -0.06 | inactive | PIGH (phosphatidylinositol glycan anchor biosynthesis class H) | 1 |
| -0.45 | -0.61 | -0.27 | -0.46 | inactive | LOC154323 (retired record) | 1 |
| 0.64 | 0.71 | 0.64 | 0.56 | inactive | IKBKE (inhibitor of nuclear factor kappa B kinase subunit epsilon) | 1 |
| -0.41 | -0.48 | -0.37 | -0.39 | inactive | COX8A (cytochrome c oxidase subunit 8A) | 1 |
| -0.26 | -0.13 | -0.3 | -0.35 | inactive | LOC388914 (retired record) | 1 |
| 0.61 | 0.75 | 0.72 | 0.35 | inactive | SMIM30 (small integral membrane protein 30) | 1 |
| 1.17 | 1.18 | 1.24 | 1.1 | inactive | SMIM30 (small integral membrane protein 30) | 2 |
| -0.06 | -0.38 | -0.25 | 0.45 | inactive | IFT57 (intraflagellar transport 57) | 1 |
| 0.13 | 0.48 | 0 | -0.09 | inactive | LOC402515 (retired record) | 1 |

Look-ups from the entries so far:
For “z-score, replicate B”, NUAK2 (NUAK family kinase 2) has 0.35
NTSR1 (neurotensin receptor 1), mean z-score = -1.01
LOC402633 (retired record), z-score, replicate B: -0.61
Under “z-score, replicate B”, RETNLB (resistin like beta) shows 0.33
For “z-score, replicate C”, CELSR1 (cadherin EGF LAG seven-pass G-type receptor 1) is entered as -0.86
RGS7 (regulator of G protein signaling 7), z-score, replicate A = 0.12
